Results of unrelated studies side by side (data: NIAID ChemDB).

Shared fields: growth or infection tests; species: Candida lusitaniae

Neighbouring rows are from separate reports.

compound | method | strain or isolate | read-out | result
C[C@@H](c1ncncc1F)[C@](O)(Cn1cncn1)c1ccc(F)cc1F | broth dilution |  | MIC50 | 0.008 µg/mL
C[C@@H]1CC(=O)N(c2ccc(F)cc2)C1=O | broth dilution / turbidity | CCC 134-2000 | MIC | 62.5 µg/mL
NN(Cc1ccccc1)CC(O)(Cn1cncn1)c1ccc(F)cc1F |  | ATCC 42720 | MIC80 | ≥0.015 µg/mL
Nc1scc2c1c(=O)oc1ccc3ccccc3c12 | broth dilution | ATCC 200950 | MIC | 8 µg/mL
CCCCCOc1ccc(-c2cc(-c3ccc(C(=O)N[C@H]4C[C@@H](O)[C@@H](O)NC(=O)[C@@H]5[C@@H](O)[C@@H](C)CN5C(=O)[C@H]([C@H](O)CC(N)=O)NC(=O)[C@H]([C@H](O)[C@@H](O)c5ccc(O)c(OS(=O)(=O)O)c5)NC(=O)[C@@H]5C[C@@H](O)CN5C(=O)[C@H]([C@@H](C)O)NC4=O)cc3)no2)cc1 | broth dilution | RC-301 | EC50 | 0.03 µg/mL
CN[C@H]1CC[C@@H](c2ccc(Cl)c(Cl)c2)c2ccccc21 | broth dilution | 2-367 | MFC | 24 µg/mL
CCC(C)n1ncn(-c2ccc(N3CCN(c4ccc(OC[C@H]5CO[C@](Cn6cncn6)(c6ccc(Cl)cc6Cl)O5)cc4)CC3)cc2)c1=O | broth dilution |  | MIC50 | 0.016 µg/mL
OC(Cn1cncn1)(Cn1cncn1)c1ccc(F)cc1F | agar |  | MIC | 12.5–25 µg/mL
C[C@@H]1C(=O)N(CCCc2ccccc2)C(=O)[C@@H]1C | broth dilution / turbidity | CCC 134-2000 | MIC | 62.5 µg/mL
CCCCCOc1ccc(-c2cc(-c3ccc(C(=O)N[C@H]4C[C@@H](O)[C@@H](O)NC(=O)[C@@H]5[C@@H](O)[C@@H](C)CN5C(=O)[C@H]([C@H](O)CC(N)=O)NC(=O)[C@H]([C@H](O)[C@@H](O)c5ccc(O)c(OS(=O)(=O)O)c5)NC(=O)[C@@H]5C[C@@H](O)CN5C(=O)[C@H]([C@@H](C)O)NC4=O)cc3)no2)cc1 |  |  | MIC50 | 0.008–2 µg/mL
C[C@@H](n1ncc2ccccc21)[C@](O)(Cn1cncn1)c1ccc(F)cc1F |  | ATCC 42720 | MIC80 | 0.063 µM
Cc1ccc(N2C(=O)C[C@@H](C)C2=O)cc1 | broth dilution / turbidity | CCC 134-2000 | MIC | 62.5 µg/mL
CCCCCCCC/C=C\CCCCCCCC(=O)N[C@H](C(=O)N1C[C@H](C)C[C@H]1C(=O)N[C@H](C(=O)N[C@@H](CCO)C(=O)N[C@@H](C)CO)C(C)C)[C@@H](C)O | broth dilution / visual reading | ATCC34449 | MIC | >32 µg/mL
C[C@H]1[C@H](O)[C@@H](C)/C=C/C=C/C=C/C=C/C=C/C=C/C=C/[C@H](O[C@@H]2O[C@H](C)[C@@H](O)[C@H](N)[C@@H]2O)C[C@@H]2O[C@](O)(C[C@@H](O)C[C@@H](O)CC[C@H](O)[C@@H](O)C[C@@H](O)CC(=O)O[C@H]1C)C[C@H](O)[C@H]2C(=O)O | broth dilution | UTHSC 11-537 | MIC | 1 µg/mL
C[C@H]1[C@H](O)[C@@H](C)/C=C/C=C/C=C/C=C/C=C/C=C/C=C/[C@H](O[C@@H]2O[C@H](C)[C@@H](O)[C@H](N)[C@@H]2O)C[C@@H]2O[C@](O)(C[C@@H](O)C[C@@H](O)CC[C@H](O)[C@@H](O)C[C@@H](O)CC(=O)O[C@H]1C)C[C@H](O)[C@H]2C(=O)O | broth dilution | 66035 | MIC | 0.015 µg/mL
C[C@@H]1CC(=O)N(c2ccc([N+](=O)[O-])cc2)C1=O | broth dilution / turbidity | CCC 134-2000 | MIC | 125 µg/mL
COC(=O)c1ccc(C[C@H](C(=O)OC)[C@@H](O)C(=O)OC)cc1 |  | SC5314 | MIC | 1 µg/mL

2 of the rows above, restated:

compound,method,strain or isolate,read-out,result
NN(Cc1ccccc1)CC(O)(Cn1cncn1)c1ccc(F)cc1F,,ATCC 42720,MIC80,≥0.015 µg/mL
Nc1scc2c1c(=O)oc1ccc3ccccc3c12,broth dilution,ATCC 200950,MIC,8 µg/mL

An empty or dashed field is not shown. A number after MIC or MFC names an inhibition level or a share of isolates. ECn is the concentration giving n% inhibition of infection, replication or growth. Two numbers with a dash give a range or band.